Publication PMC4489319 (ACS Infectious Diseases, 2015)

Assays:
Experiment in all cases: purified protein
Settings in all cases: pH 8.5; 25.0 °C
[1] = test system: C[C@H](CCC(=O)SCCNC(=O)CCNC(=O)[C@H](O)C(C)(C)COP(=O)(O)OP(=O)(O)OC[C@H]1O[C@@H](n2cnc3c(N)ncnc32)[C@H](O)[C@@H]1OP(=O)(O)O)[C@H]1CC[C@H]2[C@@H]3CCC4=CC(=O)CC[C@]4(C)[C@H]3CC[C@]12C
[2] = test system: CC(CCC[C@@H](C)[C@H]1CC[C@H]2[C@@H]3CCC4=CC(=O)CC[C@]4(C)[C@H]3CC[C@]12C)C(=O)SCCNC(=O)CCNC(=O)[C@H](O)C(C)(C)COP(=O)(O)OP(=O)(O)OC[C@H]1O[C@@H](n2cnc3c(N)ncnc32)[C@H](O)[C@@H]1OP(=O)(O)O
[3] = test system: C[C@H](C(=O)SCCNC(=O)CCNC(=O)[C@H](O)C(C)(C)COP(=O)(O)OP(=O)(O)OC[C@H]1O[C@@H](n2cnc3c(N)ncnc32)[C@H](O)[C@@H]1OP(=O)(O)O)[C@H]1CC[C@H]2[C@@H]3CCC4=CC(=O)CC[C@]4(C)[C@H]3CC[C@]12C
[4] = test system: CCCCCCCC(=O)SCCNC(=O)CCNC(=O)[C@H](O)C(C)(C)COP(=O)(O)OP(=O)(O)OC[C@H]1O[C@@H](n2cnc3c(N)ncnc32)[C@H](O)[C@@H]1OP(=O)(O)O

Substance | Km [1] | kcat/Km [1] | Km [2] | kcat/Km [2] | Km [3] | kcat/Km [3] | Km [4] | kcat/Km [4]
ChsE1-ChsE2 (Mycobacterium tuberculosis H37Rv) | 6.5 ± 0.9 µM | 24000 M⁻¹ s⁻¹ | – | – | – | – | – | –
ChsE4-ChsE5 (Mycobacterium tuberculosis H37Rv) | 2.6 ± 0.4 µM | 190000 M⁻¹ s⁻¹ | 3.4 ± 1.0 µM | 810000 M⁻¹ s⁻¹ | 3.3 ± 0.7 µM | 450000 M⁻¹ s⁻¹ | 4.1 ± 0.9 µM | 10000 M⁻¹ s⁻¹
